Source: PubChem BioAssay AID504582 (Broad Institute, 2011)
Only a part is listed here, and it is no random draw. Activity calls are given as the source filed them. Cut-off read from the data, not from the text of the source: active = growth rescue above about 28% (passing the limit was not always enough); inconclusive = no clear call, values can overlap the other calls.

experiment: rescue of yeast from PfHsp40 toxicity, primary screen, S. cerevisiae, ATP luminescence (AID 504582);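 note: yeast W303a lacking pdr1 and pdr3 grown in galactose medium; growth measured after three days at 30 °C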; conditions: S. cerevisiae expressing PfHsp40, growth rescue, at 12.5 µM, stronger effect = higher value

| Structure (SMILES) | growth rescue |
| --- | --- |
| CC(C)/C=N\N=C(\N)N[N+](=O)[O-] | inactive: -0.463% |
| CC1(CBr)Cn2c(nc3ccccc3c2=O)S1 (configuration not stated) | inactive: -0.181% |
| C=C(C=O)CC1CC(O)[C@]2(C)OC3CC4OC5C[C@]6(C)O[C@]7(C)CCC8OC9C[C@]%10(C)OC%11C(C)=CC(=O)OC%11CC%10OC9C[C@@H](C)C8OC7CC6O[C@]5(C)CC5OC5C4OC3CC2O1 (some centres not stated) | inactive: -1.91% |
| O=C(/C=C/c1ccccc1)OC1CN2CCC1CC2 (configuration not stated) | inactive: 0.726% |
| CCCC1OP(=O)(Nc2ccccc2)OCC1CC (configuration not stated) | inactive: -0.811% |
| Cc1nn(-c2ccccc2)c2c1P(=O)(N1CCOCC1)N(C)C(c1ccccc1)=N2 (configuration not stated) | inactive: -0.941% |
| Cc1ccc(C(=O)OC2CN3CCC2CC3)cc1 (configuration not stated) | inactive: 0.198% |
| CC1CCC(C(C)C)C(OP(=O)(Nc2ccccn2)c2ccccc2)C1 (configuration not stated) | inactive: 1.19% |
| Nc1cccc([As](=O)(O)c2ccccc2)c1 | inactive: -0.484% |
| NS(=O)(=O)c1cccc(NC(=O)COC(=O)C(O)(c2ccccc2)c2ccccc2)c1 | inactive: -0.225% |
| O=P1(Nc2ccc(Br)cn2)COc2ccccc2OC1 | inactive: 0.442% |
| O=[As](O)(c1cccs1)c1cccs1 | inactive: -1.57% |
| Cc1ccc(OCC(=O)OC2CN3CCC2CC3)cc1 (configuration not stated) | inactive: -0.087% |
| O=P1(Nc2ncccn2)COc2ccccc2OC1 | inactive: -0.493% |
| O=C(O)COc1ccc([As](=O)(O)O)cc1[N+](=O)[O-] | inactive: -0.386% |
| Nc1ccccc1[As](=O)(O)c1ccccc1 | inactive: 0.369% |
| CCOP1(=S)c2c(C)nn(CCC#N)c2N=C(c2ccccc2F)N1C (configuration not stated) | inactive: 0.694% |
| O=P(Nc1nccs1)(c1ccccc1)c1nc2ccccc2s1 (configuration not stated) | inactive: 1.61% |
| CC1=CC(=O)OC2CC3OC4C[C@@H](C)C5OC6CC7O[C@]8(C)C/C=C\C9OC%10CC%11OC(CC(C)C%12OCCO%12)CC(O)[C@]%11(C)OC%10CC9OC8C[C@]7(C)O[C@]6(C)CCC5OC4C[C@]3(C)OC12 (some centres not stated) | inactive: -0.782% |

| Structure (SMILES) | growth rescue |
| --- | --- |
| O=P(Nc1nccs1)(Oc1ccccc1)Oc1ccccc1 | inactive: -1.29% |
| CS(=O)(=O)c1cc([N+](=O)[O-])c2no[n+]([O-])c2c1 | inactive: 0.069% |
| N#CCCN(C(=O)COC(=O)C(O)(c1ccccc1)c1ccccc1)c1ccc(F)cc1 | inactive: -0.894% |
| CCOP1(=S)c2c(C)nn(CCC#N)c2N=C(c2ccc(F)cc2)N1C (configuration not stated) | inactive: 0.065% |
| CN(C(=O)Cc1ccccc1)[C@@H]1CC[C@]2(CCCO2)C[C@H]1N1CCCC1 | inactive: -0.509% |
| CN(C)C(=O)c1cc([N+](=O)[O-])cc2c1-c1c(cc([N+](=O)[O-])cc1[N+](=O)[O-])C2=O | inactive: 0.2% |
| O=[N+]([O-])c1ccc2c(c1)nnn2O | inactive: 13.8% |
| CN(C(=O)Cc1ccc(Cl)c(Cl)c1)[C@H]1CC[C@@]2(CCCO2)C[C@@H]1N1CCCC1 | inactive: -0.185% |
| NC(=O)Nc1ccc([As](=O)(O)O)cc1 | inactive: 1.84% |
| O=[As](O)(c1cccc(O)c1)c1cccc(O)c1 | inactive: 1.85% |
| Cc1cccc(OCC(=O)OC2CN3CCC2CC3)c1 (configuration not stated) | inactive: -0.192% |
| O=C(OC1CN2CCC1CC2)c1ccc(Cl)cc1 (configuration not stated) | inactive: -0.842% |
| O=[As](O)(O)c1cccnc1 | inactive: -1.89% |
| CS(=O)(=O)c1ccc(Cl)c(NC(=O)COC(=O)C(O)(c2ccccc2)c2ccccc2)c1 | inactive: -0.511% |
| COc1cc(C2NCCC3(OCCO3)C2(C)C)cc(OC)c1OC (configuration not stated) | inactive: -1.02% |
| CCOP(=O)(Nc1cccc2ccccc12)OCC | inactive: -1.34% |
| Nc1cccc2c([As](=O)(O)O)cccc12 | inactive: 1.39% |
| Cc1ccc(NCCc2c([N+](=O)[O-])cc([N+](=O)[O-])cc2[N+](=O)[O-])cc1 | inactive: 2.39% |
| CCCOP(=S)(Nc1nc(N)cc(=O)[nH]1)OCCC | inactive: -1.54% |

| Structure (SMILES) | growth rescue |
| --- | --- |
| O=P1(N(CCCl)CCCl)Nc2ccccc2N1 | inactive: -0.45% |
| O=P1(N(CCCl)CCCl)OCCCN1CCCl (configuration not stated) | inactive: -0.459% |
| COc1ccc2nc(NP(=O)(c3ccccc3)c3ccccc3)sc2c1 | inactive: 0.77% |
| COc1cc(I)ccc1[As](=O)(O)O | inactive: 0.407% |
| Cc1c2c(nc3ccccc13)SC(C(Cl)Cl)C2 (configuration not stated) | inactive: 4.96% |
| O=C(OC1CN2CCC1CC2)C12CC3CC(CC(C3)C1)C2 (configuration not stated) | inactive: -0.605% |
| Cc1cc(=O)[nH]c(N[N+](=O)[O-])n1 | inactive: 0.105% |
| CC(O)C1C=CC=CC(=O)OC2CC3OC4C5OC5(C)CCC4(COC(=O)C4OC4(C)C(O)CO1)C2(C)C31CO1 (configuration not stated) | inactive: -0.308% |
| O=[N+]([O-])c1cc(Oc2ccc([N+](=O)[O-])cc2C(F)(F)F)cc([N+](=O)[O-])c1 | inactive: 5.2% |
| C=C(C=O)CC1CC(O)[C@]2(C)OC3C[C@@H]4OC5C[C@]6(C)O[C@]7(C)CCC8OC9C[C@]%10(C)OC(/C(C)=C\CO)C(O)CC%10OC9CC(C)C8OC7CC6O[C@]5(C)C/C=C\C4OC3CC2O1 (some centres not stated) | inactive: -1.2% |
| COc1ccc(N/C(=N/P(=O)(N2CCOCC2)N2CCOCC2)N2CCOCC2)cc1 | inactive: -0.001% |
| Cc1ccc(OP(=O)(Nc2ccc([N+](=O)[O-])cn2)Oc2ccc(C)cc2)cc1 | inactive: 0.397% |
| Cc1ccc2nc3c(c(C)c2c1)CC(C(Cl)Cl)S3 (configuration not stated) | inactive: 1.16% |
| O=[As](O)(c1ccc(O)cc1)c1ccccc1O | inactive: -1.15% |
| C[As](=O)(O)c1cccc(C(=O)O)c1 | inactive: -0.296% |
| O=[N+]([O-])c1ccc(-c2cc([N+](=O)[O-])c(O)c([N+](=O)[O-])c2)cc1 | inactive: -1.18% |
| O=C(OC1CN2CCC1CC2)c1cccc2[nH]cnc12 (configuration not stated) | inactive: 1.27% |
| CCN(CC)C(=S)SC(NC=O)C(Cl)(Cl)Cl (configuration not stated) | inactive: 0.453% |
| CC(C)NC(=O)NP(=O)(Oc1ccccc1)Oc1ccccc1 | inactive: -0.827% |
